From patent US7553652B2, “Process for the preparation of (S)- or (R)-3,3,3-trifluoro-2-hydroxy-2-methylpropionic acid” (Lonza AG, priority 1996, dated 2009)

Tested on: amidohydrolase
Test: Enzyme characterization with heat-treated cell-free extract
Assay type: biochemical, Klebsiella oxytoca PRS1K17 (DSM 11623)
Conditions: substrate concentration 32 mM
Method: A heat-treated cell-free extract was employed for characterizing the amidase. Cells of Klebsiella oxytoca PRS1K17 (DSM 11623) (OD650=160) were disrupted by passing through a French press at 19000 psi (1309 bar). Benzonase (1 μl×30 ml extract^−1) was added, and the extract was then centrifuged for 1 hour at 20000×g. The supernatant (approx. 20 mg×ml^−1 protein) was heated for 10 minutes at 70° C. and the precipitated protein was then removed by centrifugation. The supernatant (approx. 2.0 mg×ml^−1) was concentrated to 5.0 mg×ml^−1 protein and then stored at −20° C. The heat treatment removed approx. 90% of undesired protein. Up to a protein concentration of 0.5 mg×ml^−1, the reaction rate was in direct proportion to the protein concentration. A protein concentration of 0.2 mg×ml^−1 was therefore routinely employed in the tests. To determine the pH optimum, the concentration of (R,S)-2,2-HTFMPA (substrate) was 0.5% (32 mM) and the temperature was 40° C. The buffers listed in Table 4 were employed in the test.
The effect of the temperature on the reaction was determined in 100 mM CAPS buffer (pH 10.0) at a substrate concentration of 0.5% (32 mM). The effect of the substrate concentration was determined at 60° C. in 100 mM CAPS buffer (pH 10.0), and the effect of methanol at 40 and 60° C. at a substrate concentration of 1% (64 mM) in 100 mM CAPS buffer (pH 10.0). […]

B1: amidohydrolase: (R)-stereospecific amidohydrolase from Klebsiella oxytoca PRS1/PRS1K17, SEQ ID No. 2; tested as heat-treated cell-free extract (protein, listed as Klebsiella oxytoca)
chain: MKWLEESIMAKRGVGAGRKPVTHHLTEEMQKEFHYTIGPYSTPVLTIEPGDRIIVDTRDAFEGAINSEQDIPSQLLKMPFLNPQNGPIMVNGAEKGDVLAVYIESMLPRGVDPYGICAMIPHFGGLTGTDLTAMLNDPLPEKVRMIKLDSEKVYWSKRHTLPYKPHIGTLSVSPEIDSINSLTPDNHGGNMDVPDIGPGSITYPLVRAPGGRLFIGDAHACQGDGEICGTAVEFASITTIKVDLIKNWQLSWPRMENAENIMSIGSARPLEDATRIAYRDLIYWLVEDFGFEQWDAYMLLSQCGKVRLGNMVDPKYTVGAMLNKNLLV
For B1, the temperature optimum (100 mM CAPS buffer pH 10) was 70 °C and the pH optimum (100 mM CAPS buffer, 40° C.) was 10±0.5.
